Anti-infective test results gathered from many reports (values: NIAID ChemDB through PubChem).

Shared fields: growth or infection tests; organism: Epstein-Barr virus; cells: DAUDI; endpoint: EC50

An empty or dashed field is not shown. Lines come from different laboratories, so protocols vary. ECn is the concentration giving n% inhibition of infection, replication or growth.

SMILES	read by	result
Nc1cn(/C=C2/C[C@H]2CO)c(=O)[nH]c1=O	ELISA	<0.41 µM
Cn1cc(C(=O)NCc2ccc(Cl)cc2)c(=O)c2cc(CN3CCOCC3)ccc21	ELISA	0.9 µM
Nc1nc2c(ncn2[C@@H]2C[C@H](O)[C@@H](O)[C@H]2O)c(=O)[nH]1	hybridisation	0.82 µg/mL
COC(=O)C(C)NP(=O)(OC[C@@H]1C/C1=C/n1cc(C)c(=O)[nH]c1=O)Oc1ccccc1	ELISA	>100 µM
OC[C@H]1O[C@@H](n2c(Br)nc3cc(Cl)c(Cl)cc32)[C@H](O)[C@@H]1O	hybridisation	>80 µM
Nc1nc2c(ncn2C/C=C2\CC2P(=O)(O)O)c(=O)[nH]1		<0.03 µM
O[C@@H]1[C@H](O)[C@H](O)CO[C@H]1n1c(Br)nc2cc(Cl)c(Cl)cc21	ELISA	>72 µM
CCCCCCCCCCCCCCCCCCOC[C@H](COP(=O)(O)CO[C@H](CO)Cn1ccc(N)nc1=O)OCc1ccccc1	hybridisation	0.5 µM
O=C(NCc1ccc(Cl)cc1)c1cn2c3c(cc(CN4CCOCC4)cc3c1=O)OC(c1cccnc1)C2	antigen	0.9 µM
Nc1ccn(C[C@H]2COP(=O)(O)CO2)c(=O)n1	hybridisation	>166 µM
Nc1nc(NC2CC2)c2ncn(C=C3CC3CO)c2n1		1.7 µM
CCCCCCCCCCCCOCCCOP(=O)(O)CO[C@H](CO)Cn1ccc(N)nc1=O	hybridisation	0.4 µM
Nc1cn(C=C2C[C@H]2CO)c(=O)[nH]c1=O	ELISA	<0.41 µM
CCCCCCCCCCCCCCCCOP1(=O)CO[C@@H](Cn2ccc(N)nc2=O)CO1	hybridisation	>1 µM
Nc1nc2c(ncn2COCCO)c(=O)[nH]1	hybridisation	3.6 µM